Source: patent US10233179B2, “Thiazoles and uses thereof” (AbbVie Inc., priority 2013, dated 2019)

system: RSV (Group A, Long Strain); assay: Antiviral cytopathic effect (CPE) protection assay, MTT readout; type: cell-based, human respiratory syncytial virus (RSV); parameters: key: NW: No window; conditions: ratio of MTT TD50 to RSV EC50; NW = no window
Protocol: HEp-2 cells and RSV (Group A, Long Strain) were obtained from the American Type Culture Collection (Manassas, Va.).
A cytopathic effect (CPE) protection assay was performed to determine the ability of a compound to protect the cells from viral infection and thus the CPE induced by viral infection. 96-Well plates were first seeded with 3×10^3 HEp-2 cells per well in Dulbecco's modified Eagle's medium (DMEM) containing 10% fetal bovine serum (FBS). One day after the cells were seeded, they were preincubated with serial dilutions of compounds prepared in 100 μL assay medium (DMEM mixed with F12 medium at a 1:1 ratio, supplemented with 2% FBS and 1 mM sodium pyruvate) for 1 hour at 37° C. 100 μL of assay medium containing 0.2 multiplicity of infection (MOI) of RSV was then added to each well of cells. In addition to wells containing infected cells incubated with compounds, each plate also contained replicates of two kinds of controls: (1) Virus control contained cells infected with 0.2 MOI of RSV in assay medium, (2) Uninfected cell control contained cells incubated with assay medium only. After 4 days of incubation at 37° C., the viability of cells was assessed using MTT (Thiazolyl blue tetrazolium bromide, Sigma). A stock solution of MTT, at a concentration of 4 mg/mL in phosphate-buffered saline, was added to all wells at 25 μL per well. Plates were further incubated for 4 hours, and each well was then treated with 50 μL of a solution containing 20% sodium dodecyl sulfate (SDS) and 0.02 N HCl. After an overnight incubation, the plates were measured on a BioTek® microtiter plate reader at wavelengths of 570 nm and 650 nm. The MTT detection is based on the fact that viable (uninfected) cells can reduce the tetrazolium salts into colored formazan products, which can then be quantitated by spectrometry. Based on the spectrometric absorbance of each sample, the percent of protection from CPE, which is an indicator of protection from viral infection, can be calculated for each compound and the 50% effective concentrations (EC50) can be calculated using a nonlinear regression curve fitting equation provided by the GraphPad Prism® 4 software.
Compounds were tested to determine both their antiviral and toxicity to determine their therapeutic window. Determination of the EC50 and TD50 of these active compounds were repeated one additional time to confirm the window.

SMILES | Window (TD50/EC50)
Cc1c(C(C)N(Cc2cccn2-c2nccs2)Cc2cccn2-c2nccs2)cnn1-c1cccc(F)c1 (racemic) [Example 1, 1-[1-(3-fluorophenyl)-5-methyl-1H-pyrazol-4-yl]-N,N-bis{[1-(1,3-thiazol-2-yl)-1H-pyrrol-2-yl]methyl}ethanamine] | 99
Cc1c([C@H](C)N(Cc2cccn2-c2nccs2)Cc2cccn2-c2nccs2)cnn1-c1cccc(F)c1 [Example 2, (1S)-1-[1-(3-fluorophenyl)-5-methyl-1H-pyrazol-4-yl]-N,N-bis{[1-(1,3-thiazol-2-yl)-1H-pyrrol-2-yl]methyl}ethanamine] | >450
Cc1c([C@@H](C)N(Cc2cccn2-c2nccs2)Cc2cccn2-c2nccs2)cnn1-c1cccc(F)c1 [Example 3, (1R)-1-[1-(3-fluorophenyl)-5-methyl-1H-pyrazol-4-yl]-N,N-bis{[1-(1,3-thiazol-2-yl)-1H-pyrrol-2-yl]methyl}ethanamine] | >33
COc1ccccc1CN(Cc1cccn1-c1nccs1)C(C)c1cnn(-c2cccc(F)c2)c1C (centres unmarked) [Example 4, 1-[1-(3-fluorophenyl)-5-methyl-1H-pyrazol-4-yl]-N-(2-methoxybenzyl)-N-{[1-(1,3-thiazol-2-yl)-1H-pyrrol-2-yl]methyl}ethanamine] | NW
Cc1c(C(C)N(Cc2ccc(Cl)cc2-c2ccnc(C(F)(F)F)n2)Cc2cccn2-c2nccs2)cnn1-c1cccc(F)c1 (centres unmarked) [Example 5, N-{4-chloro-2-[2-(trifluoromethyl)pyrimidin-4-yl]benzyl}-1-[1-(3-fluorophenyl)-5-methyl-1H-pyrazol-4-yl]-N-{[1-(1,3-thiazol-2-yl)-1H-pyrrol-2-yl]methyl}ethanamine] | NW
Cc1cccc(C)c1-n1ccc(CN(Cc2cccn2-c2nccs2)C(C)c2cnn(-c3cccc(F)c3)c2C)c1 (centres unmarked) [Example 6, N-{[1-(2,6-dimethylphenyl)-1H-pyrrol-3-yl]methyl}-1-[1-(3-fluorophenyl)-5-methyl-1H-pyrazol-4-yl]-N-{[1-(1,3-thiazol-2-yl)-1H-pyrrol-2-yl]methyl}ethanamine] | NW
Cc1c(C(C)N(Cc2ncc(-c3ccccc3)n2C)Cc2ncc(-c3ccccc3)n2C)cnn1-c1cccc(F)c1 (centres unmarked) [Example 7, 1-[1-(3-fluorophenyl)-5-methyl-1H-pyrazol-4-yl]-N,N-bis[(1-methyl-5-phenyl-1H-imidazol-2-yl)methyl]ethanamine] | 16
Cn1nccc1N(Cc1cccn1-c1nncs1)Cc1cccn1-c1nncs1 [Example 9, 1-methyl-N,N-bis{[1-(1,3,4-thiadiazol-2-yl)-1H-pyrrol-2-yl]methyl}-1H-pyrazol-5-amine] | >6.5
c1ccc(CN(Cc2cccn2-c2nncs2)Cc2cccn2-c2nncs2)cc1 [Example 10, 1-phenyl-N,N-bis{[1-(1,3,4-thiadiazol-2-yl)-1H-pyrrol-2-yl]methyl}methanamine] | 187
c1cc(CN(Cc2cccn2-c2nncs2)CC2C[C@H]3CC[C@@H]2C3)n(-c2nncs2)c1 (stereo partly drawn) [Example 11, 1-[(1R,4S)-bicyclo[2.2.1]hept-2-yl]-N,N-bis{[1-(1,3,4-thiadiazol-2-yl)-1H-pyrrol-2-yl]methyl}methanamine] | 46
Cc1ccccc1CN(Cc1cccn1-c1nncs1)Cc1cccn1-c1nncs1 [Example 12, 1-(2-methylphenyl)-N,N-bis{[1-(1,3,4-thiadiazol-2-yl)-1H-pyrrol-2-yl]methyl}methanamine] | >157
C[C@H](c1ccc(F)cc1)N(Cc1cccn1-c1nncs1)Cc1cccn1-c1nncs1 [Example 13, (1R)-1-(4-fluorophenyl)-N,N-bis{[1-(1,3,4-thiadiazol-2-yl)-1H-pyrrol-2-yl]methyl}ethanamine] | 7
Clc1cnc(CN(Cc2cccn2-c2nncs2)Cc2cccn2-c2nncs2)c(Cl)c1 [Example 14, 1-(3,5-dichloropyridin-2-yl)-N,N-bis{[1-(1,3,4-thiadiazol-2-yl)-1H-pyrrol-2-yl]methyl}methanamine] | 19
Fc1ccccc1CN(Cc1cccn1-c1nncs1)Cc1cccn1-c1nncs1 [Example 15, 1-(2-fluorophenyl)-N,N-bis{[1-(1,3,4-thiadiazol-2-yl)-1H-pyrrol-2-yl]methyl}methanamine] | 547
FC(F)(F)c1cccc(CN(Cc2cccn2-c2nncs2)Cc2cccn2-c2nncs2)c1 [Example 16, 1-[1-(1,3,4-thiadiazol-2-yl)-1H-pyrrol-2-yl]-N-{[1-(1,3,4-thiadiazol-2-yl)-1H-pyrrol-2-yl]methyl}-N-[3-(trifluoromethyl)benzyl]methanamine] | 14
CC(c1ccc(Cl)c(Cl)c1)N(Cc1cccn1-c1nncs1)Cc1cccn1-c1nncs1 (centres unmarked) [Example 17, 1-(3,4-dichlorophenyl)-N,N-bis{[1-(1,3,4-thiadiazol-2-yl)-1H-pyrrol-2-yl]methyl}ethanamine] | >2
Clc1ccccc1CN(Cc1cccn1-c1nncs1)Cc1cccn1-c1nncs1 [Example 18, 1-(2-chlorophenyl)-N,N-bis{[1-(1,3,4-thiadiazol-2-yl)-1H-pyrrol-2-yl]methyl}methanamine] | >512
C[C@H](c1ccccc1Cl)N(Cc1cccn1-c1nncs1)Cc1cccn1-c1nncs1 [Example 19, (1R)-1-(2-chlorophenyl)-N,N-bis{[1-(1,3,4-thiadiazol-2-yl)-1H-pyrrol-2-yl]methyl}ethanamine] | >11
C[C@@H](c1ccccc1Cl)N(Cc1cccn1-c1nncs1)Cc1cccn1-c1nncs1 [Example 20, (1S)-1-(2-chlorophenyl)-N,N-bis{[1-(1,3,4-thiadiazol-2-yl)-1H-pyrrol-2-yl]methyl}ethanamine] | >88
c1ccc(C2(CCN(Cc3cccn3-c3nncs3)Cc3cccn3-c3nncs3)CC2)nc1 [Example 21, 2-[1-(pyridin-2-yl)cyclopropyl]-N,N-bis{[1-(1,3,4-thiadiazol-2-yl)-1H-pyrrol-2-yl]methyl}ethanamine] | >518
c1ccc(N(Cc2cccn2-c2nncs2)Cc2cccn2-c2nncs2)cc1 [Example 22, N,N-bis{[1-(1,3,4-thiadiazol-2-yl)-1H-pyrrol-2-yl]methyl}aniline] | >1.1
FC1(F)CCC(CN(Cc2cccn2-c2nncs2)Cc2cccn2-c2nncs2)CC1 [Example 23, 1-(4,4-difluorocyclohexyl)-N,N-bis{[1-(1,3,4-thiadiazol-2-yl)-1H-pyrrol-2-yl]methyl}methanamine] | >41
c1cncc(C2(CCN(Cc3cccn3-c3nncs3)Cc3cccn3-c3nncs3)CC2)c1 [Example 24, 2-[1-(pyridin-3-yl)cyclopropyl]-N,N-bis{[1-(1,3,4-thiadiazol-2-yl)-1H-pyrrol-2-yl]methyl}ethanamine] | >35
CC(Cc1cccs1)N(Cc1cccn1-c1nncs1)Cc1cccn1-c1nncs1 (centres unmarked) [Example 25, N,N-bis{[1-(1,3,4-thiadiazol-2-yl)-1H-pyrrol-2-yl]methyl}-1-(thiophen-2-yl)propan-2-amine] | 7.3
c1cncc(C2(CN(Cc3cccn3-c3nncs3)Cc3cccn3-c3nncs3)CC2)c1 [Example 26, 1-[1-(pyridin-3-yl)cyclopropyl]-N,N-bis{[1-(1,3,4-thiadiazol-2-yl)-1H-pyrrol-2-yl]methyl}methanamine] | >94
c1cc(CN(CCC2(c3ccncc3)CC2)Cc2cccn2-c2nncs2)n(-c2nncs2)c1 [Example 27, 2-[1-(pyridin-4-yl)cyclopropyl]-N,N-bis{[1-(1,3,4-thiadiazol-2-yl)-1H-pyrrol-2-yl]methyl}ethanamine] | >40
N#Cc1cc(CN(Cc2cccn2-c2nncs2)Cc2cccn2-c2nncs2)cs1 [Example 28, 4-[(bis{[1-(1,3,4-thiadiazol-2-yl)-1H-pyrrol-2-yl]methyl}amino)methyl]thiophene-2-carbonitrile] | >132
Clc1ccc(CN(Cc2cccn2-c2nccs2)Cc2cccn2-c2nccs2)c(Cl)c1 [Example 29, 1-(2,4-dichlorophenyl)-N,N-bis{[1-(1,3-thiazol-2-yl)-1H-pyrrol-2-yl]methyl}methanamine] | >101
COc1ccc(CN(Cc2cccn2-c2nccs2)Cc2cccn2-c2nccs2)c(OC)c1 [Example 30, 1-(2,4-dimethoxyphenyl)-N,N-bis{[1-(1,3-thiazol-2-yl)-1H-pyrrol-2-yl]methyl}methanamine] | 91
